Assay [1] concerns the target VP40 1-20 (SEBOV). Kind of assay: FP; NEDD4 WW2.
Assay [2] concerns the target VP40 1-20 (SEBOV). The assay can be described thus: FP; NEDD4 WW4.

Regarding GPLPPGWEERTHTDGRIFYINHNIKRTQWEDPRL (domain or fragment) [E3 ubiquitin-protein ligase NEDD4 WW domain], the Kd – broadly, the constant that tells how readily two partners part at equilibrium – with VP40 1-20 (SEBOV) [1] is 22 µM; with VP40 1-20 (SEBOV) [2], 68 µM.

The values are drawn from paper PMC10132805 (2023).
